Measurements reported in PubChem BioAssay AID504761 (Drosophila RNAi Screening Center, 2011)

- Screen: 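Insect host genes that dengue virus relies on to spread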 (primary screen)
- Cell system: D.Mel-2 cells from Drosophila
- Reagents: long dsRNA against Drosophila genes
- Conditions: infection with dengue virus type 2; dose and infection time not stated
- Detection: 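Cells stained for dengue envelope protein and imaged; percent of infected cells per well on duplicate plates, ranked by infection, with stained nuclei counted for cell number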
- Scale: infection score: higher = more virus-infected cells; cell count: higher = more cells in the well
- Hit rule: 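Low infection ranks in the two replicates (chance level up to 0.065) followed by a retest with a 1.5-fold or larger significant decrease, p below 0.05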
- Calls: active = confirmed: knock-down lowers infection; inactive = not picked or not confirmed
The screen tested about 22,000 reagents; below is a random part of those with a known target gene and a result. In the full data, 116 (0.52%) got an active call. 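Calls depend on retest data that are not deposited; infection was ranked per plate without normalising between plates; the unit of the infection score is not given.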 The raw values are shown without normalisation. Not all columns of the deposit are shown. Reagent sequences are not shown. Not given: the amount of reagent, the time to read-out.

The first 2 entries, ahead of the listing:
ppk23 (pickpocket 23) [DRSC20110]: infection score, replicate 1 = 2.19; cell count, replicate 1 = 6613; Outcome = inactive
ppk23 (pickpocket 23) [DRSC26441]: infection score, replicate 1 = 0.71; cell count, replicate 1 = 6478; Outcome = inactive

Main list, from the start:
ppk23 (pickpocket 23) [DRSC20110]: infection score, replicate 1 = 2.19; cell count, replicate 1 = 6613; Outcome = inactive
ppk23 (pickpocket 23) [DRSC26441]: infection score, replicate 1 = 0.71; cell count, replicate 1 = 6478; Outcome = inactive
slif (slimfast) [DRSC11635]: infection score, replicate 1 = 30.1; cell count, replicate 1 = 5347; Outcome = inactive
slif (slimfast) [DRSC27438]: infection score, replicate 1 = 13.6; cell count, replicate 1 = 6482; Outcome = inactive
Ctps (CTP synthase) [DRSC09342]: infection score, replicate 1 = 1.46; cell count, replicate 1 = 6015; Outcome = inactive
Ctps (CTP synthase) [DRSC10728]: infection score, replicate 1 = 3.45; cell count, replicate 1 = 6607; Outcome = inactive
Ctps (CTP synthase) [DRSC10729]: infection score, replicate 1 = 0.55; cell count, replicate 1 = 6001; Outcome = inactive
CG3795 [DRSC18593]: infection score, replicate 1 = 2.37; cell count, replicate 1 = 5786; Outcome = inactive
CG3795 [DRSC25687]: infection score, replicate 1 = 3.34; cell count, replicate 1 = 6311; Outcome = inactive
Grip75 [DRSC03337]: infection score, replicate 1 = 2.61; cell count, replicate 1 = 6772; Outcome = inactive
CG13473 [DRSC10017]: infection score, replicate 1 = 10.8; cell count, replicate 1 = 6323; Outcome = inactive
CG10366 [DRSC02046]: infection score, replicate 1 = 46.9; cell count, replicate 1 = 3996; Outcome = inactive
CG10366 [DRSC26463]: infection score, replicate 1 = 1.29; cell count, replicate 1 = 5497; Outcome = inactive
